The index is printed as in the source, without its formula.
Test system: SARS-CoV-2
Assay: SARS-CoV-2 replication inhibition in Calu-3 cells, viral titers by plaque assay
Assay type: cell-based

With `O=c1[nH]c(Nc2cccc(-c3ccccc3)c2)nc2ccccc12` [Compound 10e] the “greater potency in suppressing viral replication compared to Brequinar” value (SARS-CoV-2, Calu-3, identical assay conditions) was “approximately 5 fold”, the “enhancement in antiviral activity compared to lapachol” value (SARS-CoV-2 EC50 versus lapachol EC50 = 1.5 ± 0.1 μM) was 10 fold and the SI (selectivity index, Calu-3 cells) was 234.
